“And” between values parts separate entries of the source, which are not always exact repeats. Equal entries are not always repeated.
The compounds below were run on HepG2 cells. Conditions: HepG2 Tox50 over H37Rv MIC.
With `Cc1ccc(-c2cc(CN3CCOCC3)c(C)n2-c2ccc(F)cc2)cc1` [Compound 5, 2-Methyl-3-[(morpholin-4-yl)-methyl]-5-[4-(methyl)phenyl]-1-[4-(fluoro)phenyl]-1H-pyrrole] the Tox50/MIC was 66.93. Work on `COc1ccc(-c2cc(CN3CCOCC3)c(C)n2-c2ccc(F)cc2)cc1` [Compound 6, 2-Methyl-3-[(morpholin-4-yl)-methyl]-5-[4-(methoxy)phenyl]-1-[4-(fluoro)phenyl]-1H-pyrrole] yielded a Tox50/MIC of over 41.66. In the case of `CSc1ccc(-c2cc(CN3CCOCC3)c(C)n2-c2ccc(F)cc2)cc1` [Compound 7, 2-Methyl-3-[(morpholin-4-yl)-methyl]-5-[4-(methylthio)phenyl]-1-[4-(fluoro)phenyl]-1H-pyrrole], the Tox50/MIC is reported as 54.83. Work on `CCc1ccc(-c2cc(CN3CCOCC3)c(C)n2-c2ccc(F)cc2)cc1` [Compound 8, 2-Methyl-3-[(morpholin-4-yl)-methyl]-5-[4-(ethyl)phenyl]-1-[4-(fluoro)phenyl]-1H-pyrrole] yielded a Tox50/MIC of 97.5. For `Cc1c(CN2CCOCC2)cc(-c2ccc(C(C)C)cc2)n1-c1ccc(F)cc1` [Compound 9, 2-Methyl-3-[(morpholin-4-yl)-methyl]-5-[4-(i-propyl)phenyl]-1-[4-(fluoro)phenyl]-1H-pyrrole], the Tox50/MIC was > 100 and 127.5. In the case of `Cc1ccc(-c2cc(CN3CCOCC3)c(C)n2-c2ccc(Cl)cc2)cc1` [Compound 10, 2-Methyl-3-[(morpholin-4-yl)-methyl]-5-[4-(methyl)phenyl]-1-[4-(chloro)phenyl]-1H-pyrrole], the Tox50/MIC is reported as 41.66. `CCc1ccc(-c2cc(CN3CCOCC3)c(C)n2-c2ccc(Cl)cc2)cc1` [Compound 11, 2-Methyl-3-[(morpholin-4-yl)-methyl]-5-[4-(ethyl)phenyl]-1-[4-(chloro)phenyl]-1H-pyrrole] was tested, and the Tox50/MIC was 44. Compound `CCCc1ccc(-c2cc(CN3CCOCC3)c(C)n2-c2ccc(Cl)cc2)cc1` [Compound 12, 2-Methyl-3-[(morpholin-4-yl)-methyl]-5-[4-(propyl)phenyl]-1-[4-(chloro)phenyl]-1H-pyrrole] has a Tox50/MIC of 6.65. `Cc1c(CN2CCOCC2)cc(-c2ccc(C(C)C)cc2)n1-c1ccc(Cl)cc1` [Compound 13, 2-Methyl-3-[(morpholin-4-yl)-methyl]-5-[4-(i-propyl)phenyl]-1-[4-(chloro)phenyl]-1H-pyrrole] showed a Tox50/MIC of 16.66. `Cc1ccc(-n2c(-c3ccc(Cl)cc3)cc(CN3CCOCC3)c2C)cc1` [Compound 14, 2-Methyl-3-[(morpholin-4-yl)-methyl]-5-[4-(chloro)phenyl]-1-[4-(methyl)phenyl]-1H-pyrrole] showed a Tox50/MIC of 20. In the case of `CCc1ccc(-n2c(-c3ccc(Cl)cc3)cc(CN3CCOCC3)c2C)cc1` [Compound 15, 2-Methyl-3-[(morpholin-4-yl)-methyl]-5-[4-(chloro)phenyl]-1-[4-(ethyl)phenyl]-1H-pyrrole], the Tox50/MIC is reported as 29.66. In the case of `CCCc1ccc(-n2c(-c3ccc(Cl)cc3)cc(CN3CCOCC3)c2C)cc1` [Compound 16, 2-Methyl-3-[(morpholin-4-yl)-methyl]-5-[4-(chloro)phenyl]-1-[4-(propyl)phenyl]-1H-pyrrole], the Tox50/MIC is reported as 25.66. Work on `Cc1c(CN2CCOCC2)cc(-c2ccc(Cl)cc2)n1-c1ccc(C(C)C)cc1` [Compound 17, 2-Methyl-3-[(morpholin-4-yl)-methyl]-5-[4-(chloro)phenyl]-1-[4-(i-propyl)phenyl]-1H-pyrrole] yielded a Tox50/MIC of 16.33. In the case of `COc1ccc(-n2c(-c3ccc(C)cc3)cc(CN3CCOCC3)c2C)cc1` [Compound 18, 2-Methyl-3-[(morpholin-4-yl)-methyl]-5-[4-(methyl)phenyl]-1-[4-(methoxy)phenyl]-1H-pyrrole], the Tox50/MIC is reported as 5.85. With `CCc1ccc(-c2cc(CN3CCOCC3)c(C)n2-c2ccc(OC)cc2)cc1` [Compound 19, 2-Methyl-3-[(morpholin-4-yl)-methyl]-5-[4-(ethyl)phenyl]-1-[4-(methoxy)phenyl]-1H-pyrrole] the Tox50/MIC was 19. In the case of `CCCc1ccc(-c2cc(CN3CCOCC3)c(C)n2-c2ccc(OC)cc2)cc1` [Compound 20, 2-Methyl-3-[(morpholin-4-yl)-methyl]-5-[4-(propyl)phenyl]-1-[4-(methoxy)phenyl]-1H-pyrrole], the Tox50/MIC is reported as 47.66. For `COc1ccc(-n2c(-c3ccc(C(C)C)cc3)cc(CN3CCOCC3)c2C)cc1` [Compound 21, 2-Methyl-3-[(morpholin-4-yl)-methyl]-5-[4-(i-propyl)phenyl]-1-[4-(methoxy)phenyl]-1H-pyrrole], the Tox50/MIC was 47. With `COc1ccc(-c2cc(CN3CCOCC3)c(C)n2-c2ccc(C)cc2)cc1` [Compound 22, 2-Methyl-3-[(morpholin-4-yl)-methyl]-5-[4-(methoxy)phenyl]-1-[4-(methyl)phenyl]-1H-pyrrole] the Tox50/MIC was 18.83. Compound `CCc1ccc(-n2c(-c3ccc(OC)cc3)cc(CN3CCOCC3)c2C)cc1` [Compound 23, 2-Methyl-3-[(morpholin-4-yl)-methyl]-5-[4-(methoxy)phenyl]-1-[4-(ethyl)phenyl]-1H-pyrrole] has a Tox50/MIC of 49. With `CCCc1ccc(-n2c(-c3ccc(OC)cc3)cc(CN3CCOCC3)c2C)cc1` [Compound 24] the Tox50/MIC was 13.12. In the case of `COc1ccc(-c2cc(CN3CCOCC3)c(C)n2-c2ccc(C(C)C)cc2)cc1` [Compound 25], the Tox50/MIC is reported as 79.5.
